# “And” between values parts separate entries of the source, which are not always exact repeats. Equal values may be shown once.
# B1: Human angiotensin-converting enzyme 2 ectodomain ([…]) with C-terminal E5 coil tag, p (receptor)
# chain: not shown
# notes: also called ACE2-E5; ACE2; not shown: E5 coil (GGGG[EVSALEK]5GGG), C-terminal, kept
# Columns and labels:
# Assay in all cases: SPR
# Settings in all cases: both partners purified
# [1] = biological target: T1, SARS-CoV-2 spike protein receptor binding domain (RBD […]), Kappa B.1.617.1 (SARS-CoV-2)
# [2] = biological target: SARS-CoV-2 spike protein receptor binding domain (RBD […]), Delta B.1.617.2 (SARS-CoV-2)
# [3] = biological target: T1, SARS-CoV-2 spike protein receptor …; remark: listed apart in the source
# [4] = biological target: SARS-CoV-2 spike protein receptor binding domain (RBD […]), Beta B.1.351 (SARS-CoV-2)
# [5] = biological target: SARS-CoV-2 spike protein receptor binding domain (RBD […]), Alpha B.1.1.7 (SARS-CoV-2)
binder,measurement,setting,value
B1,Kd,[1],29.5 nM and 69 nM and 75.5 nM
same,koff,[2],0.0447 s⁻¹
same,kon,[2],421000 M⁻¹ s⁻¹
same,koff,[3],0.00528 s⁻¹
same,kon,[3],189000 M⁻¹ s⁻¹
same,kon,[4],392000 M⁻¹ s⁻¹ and 1.14e+06 M⁻¹ s⁻¹
same,kon,[5],434000 M⁻¹ s⁻¹ and 1.11e+06 M⁻¹ s⁻¹

# From paper PMC9261887 (Scientific Reports, 2022)
